Pooled drug test results. Numbers come from NIAID ChemDB, via PubChem.

Shared fields: target-level tests

Percent inhibition refers to the dose given; in toxicity tests it is the harm to the cells. ICn is the concentration giving n% inhibition. a–b is a range or a potency band. Blank or dashed fields: not listed here. Lines come from different laboratories, so protocols vary.

| SMILES | dose | target | read-out | organism | read by | strain or isolate | result |
|---|---|---|---|---|---|---|---|
| O=C(Nc1ccc2[nH]ncc2c1)c1cc(NCCCn2ccnc2)c(F)cc1F | 0.1 µg/mL | Reverse transcriptase | inhibition | Hepatitis B virus |  |  | 55% |
| COc1ccc(-c2cc(-c3ccc(Cl)cc3)nc3cc(C(=O)O)nn23)cc1Cl |  | RNA-dependent RNA polymerase | IC50 | Hepatitis C virus |  |  | >10 µM |
| CC[C@@H](C=O)NC(=O)[C@@H]1C[C@@H](OCc2ccccc2)CN1C(=O)[C@@H](NC(=O)[C@H](Cc1ccc(-c2ccccc2)cc1)NC(=O)c1cnccn1)C(C)C |  | NS3 protease | Ki | Hepatitis C virus |  |  | >100 µM |
| O=C(O)CCC(=O)N[C@H](C(=O)N[C@@H](CCC(=O)O)C(=O)N[C@@H](Cc1ccccc1)C(=O)N[C@@H](CS)C(=O)O)C(c1ccccc1)c1ccccc1 | 16.7 µM | Nonstructural protein 3 NTPase/helicase | inhibition | Hepatitis C virus |  |  | 31% |
| C[C@H](NC(=O)c1cnn2c(C3CCCCC3)c(-c3ccc(F)cc3)cnc12)C(=O)O |  | RNA-dependent RNA polymerase | IC50 | Hepatitis C virus |  |  | <1 µM |
| C=CCC(NC(=O)[C@H](CC1CCCCC1)NC(=O)[C@@H](NC(=O)[C@H](CC(C)C)NC(=O)[C@@H](CC(C(=O)O)C(=O)O)NC(=O)[C@@H](N)CC(=O)O)[C@@H](C)CC)C(=O)C(=O)C(=O)N[C@@H](Cc1ccc(OC)cc1)C(=O)O |  | NS3/NS4A serine protease | IC50 | Hepatitis C virus |  |  | 0.00045 µM |
| CCN(CCO)c1cc(C(=O)Nc2ccc3cn[nH]c3c2)c(F)cc1F | 1 µg/mL | Reverse transcriptase | inhibition | Hepatitis B virus |  |  | 83% |
| O=C(O)c1cc2nc(-c3ccc(Cl)cc3Cl)cc(-c3ccccc3Cl)n2n1 |  | RNA-dependent RNA polymerase | IC50 | Hepatitis C virus |  |  | >10 µM |
| O=C(Nc1ccc2cn[nH]c2c1)c1cc(NCCO)c(F)cc1F | 0.01 µg/mL | Reverse transcriptase | inhibition | Hepatitis B virus |  |  | 33% |
| O=C(Nc1ccccc1-c1nc(C(=O)O)c(O)c(=O)[nH]1)NC1CCCc2ccccc21 |  | HCV polymerase | IC50 | Hepatitis C virus |  |  | <100 µM |
| CC[C@H](C)[C@H](NC(=O)[C@H](CC(C)C)NC(=O)CCC(=O)O)C(=O)N[C@@H](CC1CCCCC1)C(=O)NC1(C(=O)O)CC1 |  | Nonstructural protein 3 NTPase/helicase | IC50 | Hepatitis C virus |  |  | >167 µM |
| O=C(Cc1c[nH]c2ccccc12)Nc1cscc1-c1nc(C(=O)O)c(O)c(=O)[nH]1 |  | HCV polymerase | IC50 | Hepatitis C virus |  |  | <25 µM |
| CC(C)N(C(=O)c1ccc(C#N)cc1)c1cc(-c2ccccc2)sc1C(=O)O |  | NS3 ATPase | IC50 | Hepatitis C virus |  |  | 5–20 µM |
| O=C(O)c1cc2nc(-c3ccc(OCc4ccccc4)cc3)c(CC3CCCCC3)c(=O)n2[nH]1 |  | RNA-dependent RNA polymerase | IC50 | Hepatitis C virus |  |  | 1–10 µM |
| O=C(NC(Cc1c[nH]c2ccc(O)cc12)C(=O)O)c1ccc2c(c1)nc(-c1ccc3nc(-c4ccccc4)cnc3c1)n2C1CCCCC1 | 100 µM | NS5B polymerase | inhibition | Hepatitis C virus |  |  | 100% |
| CC(C)C[C@H](NC(=O)[C@H](CCC(=O)O)NC(=O)[C@@H](NC(=O)CCC(=O)O)C1CCCCC1)C(=O)NC1(C(=O)O)CC1 | 167 µM | Nonstructural protein 3 NTPase/helicase | inhibition | Hepatitis C virus |  |  | 17% |
| CC(C)(C)COC(=O)Nc1ccsc1-c1nc(C(=O)O)c(O)c(=O)[nH]1 |  | HCV polymerase | IC50 | Hepatitis C virus |  |  | <25 µM |
| CC[C@H](NC(=O)[C@H](CC(C)C)NC(=O)[C@@H](NC(=O)[C@@H](NC(=O)[C@H](CC(=O)O)CC(=O)[C@H](CCC(=O)O)NC(C)=O)C(C)C)C(C)C)C(=O)C(=O)NCc1ccncc1 |  | NS3 protease | Ki | Hepatitis C virus |  |  | <1 µM |
| O=C(O)c1ccc2c(c1)nc(-c1ccc3[nH]c(-c4ccccc4)cc(=O)c3c1)n2C1CCCCC1 | 33 µM | NS5B polymerase | inhibition | Hepatitis C virus |  |  | 39.89% |
| CC(C)CNc1cc(C(=O)Nc2ccc3cn[nH]c3c2)c(F)cc1F | 0.1 µg/mL | Reverse transcriptase | inhibition | Hepatitis B virus |  |  | 30% |
| Cc1oc(-c2ccc(Cl)cc2)cc1-c1ccc2cc(-c3nc4cc(C(=O)O)ccc4n3C3CCCCC3)ccc2n1 | 100 µM | NS5B polymerase | inhibition | Hepatitis C virus |  |  | 102% |
| COc1ccc(-c2cc(-c3ccc(Cl)cc3)nc3cc(C(=O)O)nn23)cc1 |  | RNA-dependent RNA polymerase | IC50 | Hepatitis C virus |  |  | >10 µM |
| Nc1ccn([C@H]2CS[C@@H](COP(=O)(O)OP(=O)(O)OP(=O)(O)O)O2)c(=O)n1 |  | DNA polymerase | IC50 | Hepatitis B virus |  | Polymerase mutant M550V/L526M/V553I | 9.92 µM |
| CC(C1CCNCC1)N(C(=O)c1ccc(Cl)cc1Cl)c1cc(-c2ccccc2)sc1C(=O)O.O=C([O-])C(F)(F)F |  | NS3 ATPase | IC50 | Hepatitis C virus |  |  | <5 µM |
| COc1ccc(-c2ccc(C)cc2)c(-c2ccc3cc(-c4nc5cc(C(=O)O)ccc5n4C4CCCCC4)ccc3n2)c1 | 33 µM | NS5B polymerase | inhibition | Hepatitis C virus |  |  | 98.71% |
| C=CCC(NC(=O)[C@H](C)NC(=O)[C@@H](NC(=O)[C@@H](NC(=O)[C@H](CC(=O)O)NC(=O)[C@H](CCC(=O)O)NC(C)=O)C(C)C)C(C)C)C(=O)C(=O)C(=O)N[C@@H](C)C(=O)O |  | NS3/NS4A serine protease | IC50 | Hepatitis C virus |  |  | 0.44 µM |
| O=C(Cc1ccccc1)Nc1ccsc1-c1nc(C(=O)O)c(O)c(=O)[nH]1 |  | HCV polymerase | IC50 | Hepatitis C virus |  |  | <25 µM |
| CC(C)[C@H](NC(=O)[C@@H](NC(=O)CCC(=O)O)C1CCCCC1)C(=O)N[C@@H](CCC(=O)O)C(=O)N[C@@H](CS)C(=O)O | 167 µM | Nonstructural protein 3 NTPase/helicase | inhibition | Hepatitis C virus |  |  | 68% |
| CC[C@@H](C=O)NC(=O)[C@@H]1C[C@@H](OCc2ccc(OC(F)(F)F)cc2)CN1C(=O)[C@@H](NC(=O)[C@@H](NC(=O)c1cnccn1)C(C)C)C(C)C |  | NS3 protease | Ki | Hepatitis C virus |  |  | 1–100 µM |
| COc1ccc(-c2ccc(F)c(Cl)c2)c(-c2ccc3cc(-c4nc5cc(C(=O)O)ccc5n4C4CCCCC4)ccc3n2)c1 | 33 µM | NS5B polymerase | inhibition | Hepatitis C virus |  |  | 97.62% |
| O=C(O)CCC(=O)N[C@H](C(=O)N[C@@H](CCC(=O)O)C(=O)N[C@@H](Cc1ccc2ccccc2c1)C(=O)N[C@@H](CS)C(=O)O)C1CCCCC1 | 167 µM | Nonstructural protein 3 NTPase/helicase | inhibition | Hepatitis C virus |  |  | 100% |
| O=C(O)c1cc2nc(-c3ccoc3)c(C3CCCCC3)c(=O)n2[nH]1 |  | RNA-dependent RNA polymerase | IC50 | Hepatitis C virus |  |  | 1–10 µM |
| CN(C)CCNc1cc(C(=O)Nc2ccc3cn[nH]c3c2)c(F)cc1F |  | Reverse transcriptase | IC50 | Hepatitis B virus |  |  | >1 µg/mL |
| O=C(O)CCC(=O)N[C@H](C(=O)N[C@@H](CCC(=O)O)C(=O)N[C@@H](CCC(=O)O)C(=O)NC1(C(=O)O)CC1)C(c1ccccc1)c1ccccc1 | 167 µM | Nonstructural protein 3 NTPase/helicase | inhibition | Hepatitis C virus |  |  | 23% |
| Cc1ccc(C(=O)N(C)c2cc(-c3ccc([N+](=O)[O-])cc3)sc2C(=O)O)cc1 |  | NS3 ATPase | IC50 | Hepatitis C virus |  |  | 5–20 µM |
| CC[C@H](C)[C@H](NC(=O)[C@@H](NC(=O)CCC(=O)O)C1CCCCC1)C(=O)N[C@@H](CC1CCCCC1)C(=O)NC1(C(=O)O)CC1 | 167 µM | Nonstructural protein 3 NTPase/helicase | inhibition | Hepatitis C virus |  |  | 70% |
| O=C(O)c1sc(-c2ccc([N+](=O)[O-])cc2)cc1NS(=O)(=O)c1ccc(F)cc1F |  | NS3 ATPase | IC50 | Hepatitis C virus |  |  | <5 µM |
| CC(=O)Nc1ccccc1COC(=O)Nc1ccsc1-c1nc(C(=O)O)c(O)c(=O)[nH]1 |  | HCV polymerase | IC50 | Hepatitis C virus |  |  | <25 µM |
| CC[C@@H](C=O)NC(=O)[C@@H]1C[C@@H](OCc2cccc3ccccc23)CN1C(=O)[C@@H](NC(=O)[C@@H](NC(=O)c1cnccn1)C(C)C)C(C)C |  | NS3 protease | Ki | Hepatitis C virus |  |  | 1–100 µM |
| CC(C)C[C@H](NC(=O)CCC(=O)O)C(=O)N[C@@H](CCC(=O)O)C(=O)N[C@@H](CCC(=O)O)C(=O)NC1(C(=O)O)CC1 | 167 µM | Nonstructural protein 3 NTPase/helicase | inhibition | Hepatitis C virus |  |  | 21% |
| O=C(O)c1ccc2c(c1)nc(-c1ccc3nc(-c4cc(Cl)ccc4-c4ccc(Cl)cc4)ccc3c1)n2C1CCCCC1 | 100 µM | NS5B polymerase | inhibition | Hepatitis C virus |  |  | 97.65% |
| O=C(O)CCCC(=O)N[C@@H](CCC(=O)O)C(=O)N[C@@H](CCC(=O)O)C(=O)NC1(C(=O)O)CC1 |  | Nonstructural protein 3 NTPase/helicase | IC50 | Hepatitis C virus |  |  | >83.5 µM |
| COc1cc2c(=O)c(C(=O)c3ccc(C)cc3)cn(Cc3ccc(Cl)cc3)c2cc1OC |  | Nonstructural protein 4B | IC50 | Hepatitis C virus | scintillation proximity |  | 1.7 µM |
| O=C(NCCS(=O)(=O)O)c1ccc2c(c1)nc(-c1ccc3nc(-c4ccccc4)cnc3c1)n2C1CCCCC1 | 33 µM | NS5B polymerase | inhibition | Hepatitis C virus |  |  | 74.09% |
| O=C(Nc1ccsc1-c1nc(C(=O)O)c(O)c(=O)[nH]1)c1ccc(C#Cc2ccccc2)o1 |  | HCV polymerase | IC50 | Hepatitis C virus |  |  | <25 µM |
| C=CCC(NC(=O)[C@@H](NC(=O)[C@@H](NC(=O)[C@H](CC(C)C)NC(=O)[C@@H](CCC(=O)O)NC(=O)[C@H](CC(=O)O)NC(C)=O)[C@@H](C)CC)C1CCCCC1)C(=O)O |  | NS3/NS4A serine protease | IC50 | Hepatitis C virus |  |  | 25.6 µM |
| CC(=O)c1ccc2c(C3CCCCC3)c(-c3ccc4nc(-c5sc(C)nc5C)ccc4c3)n(CC(=O)N3CCOCC3)c2c1 |  | NS5B | IC50 | Hepatitis C virus | luciferase | 1b | 0.12 µM |
| C=CCC(NC(=O)[C@H](CC1CCCCC1)NC(=O)[C@@H](NC(=O)[C@H](CC(C)C)NN1CCCCC1)[C@@H](C)CC)C(=O)C(=O)C(=O)N[C@@H](Cc1ccc(OP(=O)(O)O)cc1)C(=O)O |  | NS3/NS4A serine protease | IC50 | Hepatitis C virus |  |  | 0.18 µM |
| COc1cccc(-c2nc(C(=O)O)c(O)c(=O)[nH]2)c1 |  | HCV polymerase | IC50 | Hepatitis C virus |  |  | <100 µM |
| O=C(O)c1ccc2c(c1)nc(-c1ccc3nc(-c4cc(-c5ccc(Cl)c(Cl)c5)no4)ccc3c1)n2C1CCCCC1 | 33 µM | NS5B polymerase | inhibition | Hepatitis C virus |  |  | 99.64% |
| Cc1ccc(C(=O)N(C)c2cc(-c3ccc(OC(F)(F)F)cc3)sc2C(=O)O)cc1 |  | NS3 ATPase | IC50 | Hepatitis C virus |  |  | 5–20 µM |
| O=C(N[C@@H](CO)C(=O)O)c1cnn2c(C3CCCCC3)c(-c3ccc(OCc4ccccc4)cc3)cnc12 |  | RNA-dependent RNA polymerase | IC50 | Hepatitis C virus |  |  | 1–10 µM |
| C=CCC(NC(=O)[C@H](C)NC(=O)[C@@H](NC(=O)[C@@H](NC(C)=O)C(C)C)C(C)C)C(=O)C(=O)C(=O)N[C@@H](C)C(=O)O |  | NS3/NS4A serine protease | IC50 | Hepatitis C virus |  |  | 57 µM |

Repeating the final 5 entries:

SMILES	dose	target	read-out	organism	read by	strain or isolate	result
COc1cccc(-c2nc(C(=O)O)c(O)c(=O)[nH]2)c1		HCV polymerase	IC50	Hepatitis C virus			<100 µM
O=C(O)c1ccc2c(c1)nc(-c1ccc3nc(-c4cc(-c5ccc(Cl)c(Cl)c5)no4)ccc3c1)n2C1CCCCC1	33 µM	NS5B polymerase	inhibition	Hepatitis C virus			99.64%
Cc1ccc(C(=O)N(C)c2cc(-c3ccc(OC(F)(F)F)cc3)sc2C(=O)O)cc1		NS3 ATPase	IC50	Hepatitis C virus			5–20 µM
O=C(N[C@@H](CO)C(=O)O)c1cnn2c(C3CCCCC3)c(-c3ccc(OCc4ccccc4)cc3)cnc12		RNA-dependent RNA polymerase	IC50	Hepatitis C virus			1–10 µM
C=CCC(NC(=O)[C@H](C)NC(=O)[C@@H](NC(=O)[C@@H](NC(C)=O)C(C)C)C(C)C)C(=O)C(=O)C(=O)N[C@@H](C)C(=O)O		NS3/NS4A serine protease	IC50	Hepatitis C virus			57 µM